Results of unrelated studies side by side (data: NIAID ChemDB).

Shared fields: host cell toxicity; cells: HeLa; measure: CC50

CCn: concentration that lowers growth or viability of the cells by n%.

structure | read by | value
Cc1ccsc1C(=O)CCCCOc1ccc(C(=O)O)cc1 | - | >314 µM
COc1cnc(-c2cccn2C)c2[nH]cc(C(=O)C(=O)N3CCN(C(=O)c4ccccc4)CC3)c12 | trypan blue | ≤100 µM
COc1cccc(NC(=O)c2c(O)c3cccnc3n(O)c2=O)c1 | - | <100 µM
COc1cnc(-c2nnc(C)o2)c2[nH]cc(C(=O)C(=O)N3CCN(C(=O)c4ccccc4)CC3)c12 | trypan blue | >100 µM
Cc1cc(C(=O)CCCCOc2ccc(C3=NCCO3)cc2)c(C)[nH]1 | - | 205 µM
CCOC(=O)[C@@]1(C)CC[C@]2(C)CC[C@]3(C)C(=CC(=O)[C@@H]4[C@@]5(C)CC/C(=N\OCc6ccccc6Br)C(C)(C)[C@@H]5CC[C@]43C)[C@@H]2C1 | MTT | 69.71 µM
NCc1ccc(-c2ccc(Cc3cc(=O)n(O)c4ncccc34)cc2)cc1 | - | 0.13 µM
Cc1cc(C(=O)CCCCOc2ccc(C3=NCCO3)cc2)c(C)n1C | - | 141 µM
O=C(C(=O)N1CCN(C(=O)c2ccccc2)CC1)c1c[nH]c2c(-n3cccc3)ncc(F)c12 | trypan blue | >100 µM
CCOC(=O)[C@@]1(C)CC[C@]2(C)CC[C@]3(C)C(=CC(=O)[C@@H]4[C@@]5(C)CC/C(=N\OCc6ccc(-c7ccccc7)cc6)C(C)(C)[C@@H]5CC[C@]43C)[C@@H]2C1 | MTT | 38.29 µM
CCOC(=O)c1c(O)c2cc(C(=O)N3CCCCC3CCc3ccccc3)cnc2n(O)c1=O | - | <100 µM
NC(=O)c1cc(-c2ncc(F)c3c(C(=O)C(=O)N4CCN(C(=O)c5ccccc5)CC4)c[nH]c23)n[nH]1 | trypan blue | >100 µM
CCOC(=O)c1ccc(OCCCC(=O)c2ccc(C)s2)cc1 | - | >301 µM
CCOC(=O)[C@@]1(C)CC[C@]2(C)CC[C@]3(C)C(=CC(=O)[C@@H]4[C@@]5(C)CC/C(=N\OCc6cc(C)nn6C)C(C)(C)[C@@H]5CC[C@]43C)[C@@H]2C1 | MTT | 14.51 µM
COc1cnc(-n2ncc(C)n2)c2[nH]cc(C(=O)C(=O)N3CCN(C(=O)c4ccccc4)[C@H](C)C3)c12 | trypan blue | >100 µM
CCOC(=O)c1ccc(OCCCCC(=O)c2cc(C)cs2)cc1 | - | >289 µM
CCOC(=O)[C@@]1(C)CC[C@]2(C)CC[C@]3(C)C(=CC(=O)[C@@H]4[C@@]5(C)CC/C(=N\OCc6ccc(F)c(F)c6)C(C)(C)[C@@H]5CC[C@]43C)[C@@H]2C1 | MTT | 23.73 µM
O=c1cc(NC2CCN(Cc3ccccc3)C2)c2cccnc2n1O | - | <100 µM
CCOC(=O)[C@@]1(C)CC[C@]2(C)CC[C@]3(C)C(=CC(=O)[C@@H]4[C@@]5(C)CC/C(=N\OCc6ccc(Cl)c(Cl)c6)C(C)(C)[C@@H]5CC[C@]43C)[C@@H]2C1 | MTT | 43.65 µM
O=c1c(-c2ccccn2)c(O)c2cccnc2n1O | - | 0.5 µM
CCc1ncn(-c2ncc(OC)c3c(C(=O)C(=O)N4CCN(C(=O)c5ccccc5)[C@H](C)C4)c[nH]c23)n1 | trypan blue | >100 µM
Cc1ccc(C(=O)CCCCOc2ccc(C3=NCCO3)cc2)s1 | - | 146 µM
CCOC(=O)[C@@]1(C)CC[C@]2(C)CC[C@]3(C)C(=CC(=O)[C@@H]4[C@@]5(C)CC/C(=N\OCc6ccc7ccccc7c6)C(C)(C)[C@@H]5CC[C@]43C)[C@@H]2C1 | MTT | 81.28 µM
O=c1c2ccccc2c2cccnc2n1O | - | <100 µM
O=C(CCCCOc1ccc(C2=NCCO2)cc1)c1ccc[nH]1 | - | >320 µM
Cc1ncn(-c2cc(Cl)nc3c(C(=O)C(=O)N4CCN(C(=O)c5ccccc5)[C@H](C)C4)c[nH]c23)n1 | trypan blue | >100 µM

Repeating the final 4 entries:

structure,read by,value
CCOC(=O)[C@@]1(C)CC[C@]2(C)CC[C@]3(C)C(=CC(=O)[C@@H]4[C@@]5(C)CC/C(=N\OCc6ccc7ccccc7c6)C(C)(C)[C@@H]5CC[C@]43C)[C@@H]2C1,MTT,81.28 µM
O=c1c2ccccc2c2cccnc2n1O,-,<100 µM
O=C(CCCCOc1ccc(C2=NCCO2)cc1)c1ccc[nH]1,-,>320 µM
Cc1ncn(-c2cc(Cl)nc3c(C(=O)C(=O)N4CCN(C(=O)c5ccccc5)[C@H](C)C4)c[nH]c23)n1,trypan blue,>100 µM

An empty or dashed field is not shown. Neighbouring rows are from separate reports.